A mixed list of measured activities; the numbers were collected in NIAID ChemDB.

Shared fields: whole-cell or culture tests; agent: Mycobacterium smegmatis; read-out: inhibition

Neighbouring rows are from separate reports. Blank or dashed fields: not listed here. Inhibition is in % at the dose shown (toxicity tests: loss of growth or viability).

compound,dose,strain,read by,value
Cc1c(C(=O)O)nn(-c2ccc(Cl)cc2Cl)c1-c1ccc(Cl)cc1,30 µM,mc2155,agar,22.84%
Cc1nc(-c2ccc(F)cc2)sc1-c1cn2ccccc2n1,30 µM,mc2155,broth dilution / absorbance,29.5%
Cc1c(C(=O)NNC(=O)c2ccncc2)nn(-c2ccc(Cl)cc2Cl)c1-c1ccccc1,30 µM,mc2155,agar,1.362%
Cc1nc(-c2ccc(F)cc2)sc1-c1cn2cc(Br)ccc2n1,30 µM,mc2155,broth dilution / absorbance,50.5%
CC(C)N[C@@H]1CCCC[C@H]1NC(C)C,250 µg/mL,ATCC 607,-,0%
Cc1c(C(=O)N2CCN(C)CC2)nn(-c2ccc(Cl)cc2Cl)c1-c1ccc(Cl)cc1,30 µM,mc2155,agar,14.5%
CCCC(C)NCCNC(C)CCC,250 µg/mL,ATCC 607,-,0%
CC(=O)Nc1oc(-c2ccccc2)c(-c2ccccc2)c1C#N,50 µg/mL,-,resazurin,38%
CCOC(=O)c1nn(-c2ccccc2)c(-c2ccc(Cl)cc2)c1C,30 µM,mc2155,agar,22.7%
O=C1NC(=S)S/C1=C/c1ccc(-c2cccc(C(F)(F)F)c2)o1,1 µM,-,broth dilution / turbidity,72%
CC(C)N1CCN(C(C)C)CC1,1000 µg/mL,ATCC 607,-,0%
Cc1nc(-c2ccccc2)sc1-c1cn2ccccc2n1,30 µM,mc2155,broth dilution / absorbance,2.5%
Cc1c(C(=O)NN2CCCCC2)nn(-c2ccccc2)c1-c1ccc(Cl)cc1,30 µM,mc2155,agar,99.7%
Cc1ccc(-c2nc(C)c(-c3cn4cc(Br)ccc4n3)s2)cc1,30 µM,mc2155,broth dilution / absorbance,4.7%
CCC(CC)NCCNC(CC)CC,250 µg/mL,ATCC 607,-,0%
Cc1nc(-c2ccccc2)sc1-c1cn2cc(Cl)ccc2n1,30 µM,mc2155,broth dilution / absorbance,9.8%
COc1ccc(-c2csc(N3N=C(c4cccs4)CC3c3ccc4c(c3)OCO4)n2)cc1,1000 µg/mL,ATCC 607,-,0%
Cc1ccc(S(=O)(=O)Nc2oc(-c3ccccc3)c(-c3ccccc3)c2C#N)cc1,50 µg/mL,-,resazurin,37%